The target in this test is SARS-CoV-2 Wuhan-Hu-1 RBD (SARS-CoV-2 Wuhan-Hu-1). Put plainly: BLI. The note with it: both partners purified.

B1: V008 (antibody, V domains shown)
VH: QVQLVQSGAEVKKPGASVKVSCKASGYTFTGYYMHWVRQAPGQGLEWMGWINPNSGGTNYAQKFQGRVTMTRDTSISTAYMELSRLRSDDTAVYYCASGSYYYDSSGYYYNDAFDIWGQGTMVTVSS
VL: [about 100 residues cut from this listing]
notes: IgG; donor BRA13; source: recombinant monoclonal IgG, produced and purified as previously described
On to B1, for which the dissociation constant Kd (usually the constant that tells how readily two partners part at equilibrium) was found to be 3.54 nM.
